Conditions: human, in vivo

For `O=C(CCCCNC(=O)c1nc(-c2nccs2)sc1C1CC1)NO` [BIS], the “grade 2 nausea and vomiting” value was “one patient”.

Source: article PMC8976035, “Pharmacodynamic, pharmacokinetic, and phase 1a study of bisthianostat, a novel histone deacetylase inhibitor, for the treatment of relapsed or refractory multiple myeloma” (Acta Pharmacologica Sinica, 2021)
